Measurements reported in the supplement of paper PMC9262897, “Low-cost anti-mycobacterial drug discovery using engineered E. coli” (Nature Communications, 2022).
± gives the standard deviation of the averaged measurements. The entries are a selection whose mix differs from that of the whole data set.

tested on: E. coli TESEC Alr+ wild-type control; assay: growth (OD600 after 10 h); higher = more growth (less inhibition); details: compound 0.1 mM; raw OD600 reference: median of DMSO wells 0.241, cell-free background 0.041
Method: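 TESEC Mtb Alr E. coli, or the Alr+ wild-type control, in 384-well plates with Prestwick library compounds at 0.1 mM and 1% DMSO, across arabinose induction levels of 1E3 to 1E7 nM. Growth is read as OD600 after 10 h at 37 °C in triplicate biological replicates.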

Row | SMILES | growth
1 | COc1cc(Br)c(C[N+]2(CCOCCC3CCC4CC3C4(C)C)CCOCC2)cc1OC (stereo unspecified) [Pinaverium bromide] | 0.03947 ± 0.00038
